Compound potency records, mixed from different reports. Data source: NIAID ChemDB in PubChem.

Shared fields: whole-cell or culture tests; species: HIV-2; cells: CEM; read-out: EC50

An empty or dashed field is not shown. ECn: concentration that inhibits the pathogen or its effect by n%. Conditions beyond the fields shown may differ between rows.

{"structure": "CC(C)(C)C(=O)OCOP(=O)(COCCn1cnc2c(N)ncnc21)OCOC(=O)C(C)(C)C", "method": "cytopathic effect / MTT", "value": "0.25 µM"}
{"structure": "Cc1cn([C@@H]2O[C@@H](CO[Si](C)(C)C(C)(C)C)C3(OS(=O)(=O)C=C3N)[C@@H]2O[Si](C)(C)C(C)(C)C)c(=O)[nH]c1=O", "strain": "ROD", "method": "syncytia", "value": ">20 µg/mL"}
{"structure": "CN(C)C(=O)c1cnnn1[C@@H]1O[C@H](CO[Si](C)(C)C(C)(C)C)C2(OS(=O)(=O)C=C2N)[C@H]1O[Si](C)(C)C(C)(C)C", "strain": "ROD", "method": "cytopathic effect", "value": ">7 µM"}
{"structure": "Cc1cn([C@@H]2O[C@H](CO[Si](C)(C)C(C)(C)C)[C@@]3(OS(=O)(=O)C=C3N)[C@H]2O[Si](C)(C)C(C)(C)C)c(=O)[nH]c1=O", "strain": "ROD", "method": "syncytia", "value": ">4 µg/mL"}
{"structure": "O=c1[nH]cccc1O", "strain": "ROD", "method": "syncytia", "value": "22 µg/mL"}
{"structure": "Cc1cn([C@@H]2O[C@H](CO[Si](C)(C)C(C)(C)C)C3(OS(=O)(=O)C=C3N)[C@H]2O[Si](C)(C)C(C)(C)C)c(=O)n(CC(=O)N[C@@H](CC(=O)O)C(=O)O)c1=O", "strain": "ROD", "method": "syncytia", "value": "140 µM"}
{"structure": "COc1ccc2c(c1)COP(=O)(OC[C@@H]1C=C[C@H](n3cnc4c(NC5CC5)nc(N)nc43)C1)O2", "strain": "ROD", "method": "syncytia", "value": "2 µM"}
{"structure": "Cc1cn([C@H]2C[C@H](N=[N+]=[N-])[C@@H](CN3C(=O)c4ccc(C(=O)OCC56CC7CC(CC(C7)C5)C6)cc4C3=O)O2)c(=O)[nH]c1=O", "strain": "ROD", "method": "syncytia", "value": "0.11 µM"}
{"structure": "Cc1cn([C@H]2C=C[C@@H](CO)O2)c(=O)[nH]c1=O", "value": "0.41 µM"}
{"structure": "Cc1cn([C@H]2C[C@@H]3[C@@H](COCN3O)O2)c(=O)[nH]c1=O", "strain": "ROD", "method": "syncytia", "value": "25 µg/mL"}
{"structure": "C1CNCCNCCCN[C@H]([C@@H]2CNCCCNCCNCCCN2)CNC1", "strain": "ROD", "method": "antigen", "value": "0.14 µM"}
{"structure": "Cc1cn([C@H]2C[C@H](N=[N+]=[N-])[C@@H](CN3C(=O)c4ccc([N+](=O)[O-])cc4C3=O)O2)c(=O)[nH]c1=O", "strain": "ROD", "method": "syncytia", "value": "14.1 µM"}
{"structure": "Nc1nc2c(ncn2CCOCP(=O)(O)O)c(=O)[nH]1", "strain": "ROD", "value": "0.53 µM"}
{"structure": "COC(=O)[C@H](C)OP(=O)(OC[C@@H]1C=C[C@H](n2cc(C)c(=O)[nH]c2=O)O1)Oc1ccccc1", "strain": "LAV-2", "method": "cytopathic effect", "value": "50 µM"}
{"structure": "Nc1nc(NC2CC2)c2ncn([C@H]3C=C[C@@H](COP4(=O)OCc5cc(Cl)ccc5O4)C3)c2n1", "strain": "ROD", "method": "syncytia", "value": "2.5 µM"}
{"structure": "Cc1cccc2c1OP(=O)(OC[C@@H]1C=C[C@H](n3cc(C)c(=O)[nH]c3=O)O1)OC2", "value": "0.05 µM"}
{"structure": "O=CN(CCC(=O)O)c1ccc(B(O)O)cc1", "strain": "ROD", "method": "syncytia", "value": ">250 µM"}
{"structure": "Cc1cn([C@H]2C[C@H](N=[N+]=[N-])[C@@H](CO)O2)c(=O)[nH]c1=O", "strain": "ROD", "value": "0.006 µM"}
{"structure": "CC(=O)O[C@@H]1[C@H](n2cc(C)c(=O)[nH]c2=O)O[C@@H](COC(=O)c2ccccc2)C12OS(=O)(=O)C=C2N", "strain": "ROD", "method": "syncytia", "value": ">100 µg/mL"}
{"structure": "Nc1nc(N)c(C=O)c(OCCOCP(=O)(O)O)n1", "strain": "ROD", "method": "syncytia", "value": "2.7 µM"}
{"structure": "Cc1cn([C@@H]2O[C@H](CO[Si](C)(C)C(C)(C)C)C3(OS(=O)(=O)C=C3N)[C@H]2O[Si](C)(C)C(C)(C)C)c(=O)n(C)c1=O", "strain": "ROD", "method": "syncytia", "value": ">200 µM"}
{"structure": "CCCCNc1nc(N)nc2c1ncn2CCOCP(=O)(O)O", "strain": "ROD", "method": "cytopathic effect / MTT", "value": "1.4 µg/mL"}
{"structure": "Nc1nc(=O)n([C@@H]2CS[C@H](CO)O2)cc1F", "strain": "ZY", "method": "cytopathic effect", "value": "0.1 µM"}
{"structure": "Cc1ccc(S(=O)(=O)OC[C@H]2O[C@@H](n3cc(C)c(=O)n(C)c3=O)[C@H](O[Si](C)(C)C(C)(C)C)C23OS(=O)(=O)C=C3N)cc1", "strain": "ROD", "method": "syncytia", "value": ">6.2 µM"}
{"structure": "COP(=O)(O)C[C@H](NP(=O)(O)OC[C@@H]1C=C[C@H](n2cc(C)c(=O)[nH]c2=O)O1)C(=O)O", "strain": "ROD", "method": "MTT", "value": "1.44 µM"}
{"structure": "Cc1cc(NCCc2cccc3ccccc23)cc(=O)o1", "strain": "ROD", "method": "MTT", "value": ">10 µM"}
{"structure": "CCN(CC)C(=O)c1ccc(B(O)O)cc1", "strain": "ROD", "method": "syncytia", "value": ">250 µM"}
{"structure": "Cc1cn([C@H]2C[C@H](N=[N+]=[N-])[C@@H](CN3C(=O)c4c(Br)c(Br)c(Br)c(Br)c4C3=O)O2)c(=O)[nH]c1=O", "strain": "ROD", "method": "syncytia", "value": "3.9 µM"}
{"structure": "CN(C)c1ncnc2c1ncn2CCOCP(=O)(O)O", "strain": "ROD", "method": "cytopathic effect / MTT", "value": "85 µg/mL"}
{"structure": "CCNC(=O)c1cnnn1C1OC(CO[Si](C)(C)C(C)(C)C)C2(OS(=O)(=O)C=C2N)C1O[Si](C)(C)C(C)(C)C", "strain": "ROD", "method": "cytopathic effect", "value": ">250 µM"}
{"structure": "Nc1ncnc2c1ncn2CCOCP(=O)(O)O", "method": "syncytia", "value": "10 µM"}
{"structure": "Nc1nc(N)c(C=O)c(OCCOCP(=O)(O)O)n1", "strain": "ROD", "method": "syncytia", "value": "0.83 µg/mL"}
{"structure": "Nc1nc2c(ncn2CC(OCCF)OCP(=O)(O)O)c(=O)[nH]1", "method": "cytopathic effect", "value": "7.67 µg/mL"}
{"structure": "CCOC(=O)c1cc(O)c(O)c(O)c1", "strain": "ROD", "method": "syncytia", "value": "2.7 µg/mL"}
{"structure": "Cc1cn([C@@H]2O[C@H](CO[Si](C)(C)C(C)(C)C)C3(OS(=O)(=O)C=C3N)[C@H]2O[Si](C)(C)C(C)(C)C(C)C)c(=O)n(C)c1=O", "strain": "ROD", "method": "syncytia", "value": ">30 µM"}
{"structure": "Nc1ncnc2c1ncn2CCOCP(=O)(O)O", "strain": "ROD", "method": "syncytia", "value": "5.7 µg/mL"}
{"structure": "CC1(C)S[C@H]([C@H](NC(=O)Cc2ccccc2)C(=O)NCc2ccccc2)N[C@H]1C(=O)NCCNC(=O)[C@@H]1N[C@@H]([C@H](NC(=O)Cc2ccccc2)C(=O)NCc2ccccc2)SC1(C)C", "strain": "ROD", "value": "0.26 µM"}
{"structure": "Cc1cc(NCc2cccc3ccccc23)cc(=O)o1", "strain": "ROD", "method": "MTT", "value": ">10 µM"}
{"structure": "Cc1cn([C@H]2C[C@H](N=[N+]=[N-])[C@@H](CN3C(=S)c4ccccc4C3=S)O2)c(=O)[nH]c1=O", "strain": "ROD", "method": "syncytia", "value": "4.3 µM"}
{"structure": "CCN(C)C(=O)c1cnnn1C1OC(CO[Si](C)(C)C(C)(C)C)C2(OS(=O)(=O)C=C2N)C1O[Si](C)(C)C(C)(C)C", "strain": "ROD", "method": "cytopathic effect", "value": ">50 µM"}
{"structure": "CCc1c(NCc2cccc3ccccc23)cc(C)oc1=O", "strain": "ROD", "method": "MTT", "value": ">10 µM"}
{"structure": "Cc1cn([C@H]2C=C[C@@H](COP(=O)(O)N(CC(=O)O)CC(=O)O)O2)c(=O)[nH]c1=O", "strain": "ROD", "method": "MTT", "value": "2.13 µM"}
{"structure": "CN=C1N(C)C(=O)OC12[C@@H](CO[Si](C)(C)C(C)(C)C)O[C@@H](n1cc(C)c(=O)n(C)c1=O)[C@@H]2O[Si](C)(C)C(C)(C)C", "strain": "ROD", "method": "syncytia", "value": ">35 µM"}
{"structure": "Cc1cccc2c1OP(=O)(OCCOCn1cnc3c(=O)[nH]c(N)nc31)OC2", "strain": "ROD", "method": "syncytia", "value": "≥50 µM"}
{"structure": "O=C(NC1CC1)c1ccc(B(O)O)cc1", "strain": "ROD", "method": "syncytia", "value": ">250 µM"}
{"structure": "Cc1cn([C@@H]2O[C@H](COC(=O)C(C)(C)C)C3(OS(=O)(=O)C=C3N)[C@H]2O[Si](C)(C)C(C)(C)C)c(=O)[nH]c1=O", "strain": "ROD", "method": "syncytia", "value": ">35 µM"}
{"structure": "Cc1cn([C@@H]2O[C@H](CO[Si](C)(C)C(C)(C)C)[C@@]3(OS(=O)(=O)C=C3N)[C@H]2O[Si](C)(C)C(C)(C)C)c(=O)n(CC(=O)N[C@@H](CCC(=O)O)C(=O)O)c1=O", "strain": "ROD", "method": "syncytia", "value": "105 µM"}
{"structure": "CC(C)NCC(O)c1ccc(O)c(O)c1", "strain": "ROD", "method": "syncytia", "value": "22 µg/mL"}
{"structure": "CC(C)(C)[Si](C)(C)OCC1OC(n2nncc2C(=O)NC2CC2)C(O[Si](C)(C)C(C)(C)C)C12OS(=O)(=O)C=C2N", "strain": "ROD", "method": "cytopathic effect", "value": ">50 µM"}
{"structure": "CCCCCNc1nc(N)nc2c1[nH]c[n+]2C[C@@H](C)OCP(=O)(O)O", "strain": "ROD", "method": "cytopathic effect / MTT", "value": "15 ± 7.1 µg/mL"}
{"structure": "Cc1cn([C@H]2C[C@H](N=[N+]=[N-])[C@@H](CN3C(=O)c4c(Cl)c(Cl)c(Cl)c(Cl)c4C3=O)O2)c(=O)[nH]c1=O", "strain": "ROD", "method": "syncytia", "value": "14.1 µM"}
{"structure": "Cc1cn([C@H]2C[C@H](F)[C@@H]([C@@H](C)O)O2)c(=O)[nH]c1=O", "strain": "ROD", "method": "syncytia", "value": "27 ± 18 µg/mL"}
{"structure": "Nc1ncnc2c1ncn2[C@H]1CC[C@@H](CO)O1", "strain": "LAV-2", "method": "virus yield", "value": "<1 µM"}
{"structure": "C[C@H](Cn1cnc2c(N)ncnc21)OCP(=O)(O)O", "strain": "ROD", "value": "7 µM"}
{"structure": "Cc1cn([C@H]2C=C[C@@H](COP3(=O)OCc4cc(C(C)(C)C)cc(C(C)(C)C)c4O3)O2)c(=O)[nH]c1=O", "value": "1.2 µM"}
{"structure": "Cc1c(N)nc(N)nc1OCCOCP(=O)(O)O", "strain": "ROD", "method": "syncytia", "value": "0.09 µg/mL"}
{"structure": "Nc1nc(Nc2ccccc2)c2ncn(CCOCP(=O)(O)O)c2n1", "strain": "ROD", "method": "cytopathic effect / MTT", "value": "35 µg/mL"}
{"structure": "C[C@H](Cn1cnc2c(N)ncnc21)OCP(=O)(O)O", "strain": "ROD", "method": "syncytia", "value": "1.4 µM"}
{"structure": "Nc1nc(NC2CC2)c2ncn(C3C=C[C@@H](CO)C3)c2n1", "strain": "ROD", "value": "5.2 µM"}
{"structure": "Cc1cn([C@H]2C[C@H](F)[C@@H](C(C)O)O2)c(=O)[nH]c1=O", "strain": "ROD", "method": "syncytia", "value": "7 ± 4.2 µg/mL"}
{"structure": "Nc1nc(NC2CC2)c2ncn(C3CC=C[C@H]3CO)c2n1", "strain": "ROD", "value": ">100 µM"}
{"structure": "CC[C@H](C)[C@@H](C(=O)O)n1sc2ccccc2c1=O", "method": "p24 / RT activity", "value": "5.8 µM"}
{"structure": "Cc1cn([C@@H]2O[C@H](CCC(C)C)C3(OS(=O)(=O)C=C3N)[C@H]2OC(=O)c2ccccc2)c(=O)[nH]c1=O", "strain": "ROD", "method": "syncytia", "value": ">20 µg/mL"}
{"structure": "CCCOC(=O)c1cc(O)c(O)c(O)c1", "strain": "ROD", "method": "syncytia", "value": "4 µg/mL"}
{"structure": "OB(O)c1ccccc1/C=N/NC(=S)Nc1ccccc1", "strain": "ROD", "method": "syncytia", "value": ">50 µM"}
{"structure": "Cc1cn([C@H]2CC(SSC(Cl)(Cl)Cl)[C@@H](CO)O2)c(=O)[nH]c1=O", "strain": "ROD", "method": "syncytia", "value": "<27.5 µM"}

For reference, 10 entries again:

structure | strain | method | value
C1CNCCNCCCN[C@H]([C@@H]2CNCCCNCCNCCCN2)CNC1 | ROD | antigen | 0.14 µM
CCN(CC)C(=O)c1ccc(B(O)O)cc1 | ROD | syncytia | >250 µM
Cc1cn([C@H]2C[C@H](N=[N+]=[N-])[C@@H](CO)O2)c(=O)[nH]c1=O | ROD |  | 0.006 µM
CN(C)C(=O)c1cnnn1[C@@H]1O[C@H](CO[Si](C)(C)C(C)(C)C)C2(OS(=O)(=O)C=C2N)[C@H]1O[Si](C)(C)C(C)(C)C | ROD | cytopathic effect | >7 µM
CN=C1N(C)C(=O)OC12[C@@H](CO[Si](C)(C)C(C)(C)C)O[C@@H](n1cc(C)c(=O)n(C)c1=O)[C@@H]2O[Si](C)(C)C(C)(C)C | ROD | syncytia | >35 µM
COP(=O)(O)C[C@H](NP(=O)(O)OC[C@@H]1C=C[C@H](n2cc(C)c(=O)[nH]c2=O)O1)C(=O)O | ROD | MTT | 1.44 µM
Cc1cn([C@H]2C[C@H](F)[C@@H]([C@@H](C)O)O2)c(=O)[nH]c1=O | ROD | syncytia | 27 ± 18 µg/mL
Cc1cc(NCCc2cccc3ccccc23)cc(=O)o1 | ROD | MTT | >10 µM
C[C@H](Cn1cnc2c(N)ncnc21)OCP(=O)(O)O | ROD |  | 7 µM
Cc1cn([C@H]2CC(SSC(Cl)(Cl)Cl)[C@@H](CO)O2)c(=O)[nH]c1=O | ROD | syncytia | <27.5 µM